# Measurements reported in US20040102514A1 (priority 2003, published 2004).
# Assay: Solubility of the powder for mixing into feed
substance,measurement,value
"12,13-Epoxytricothec-9-ene-3α,7α,8α, 15-tetraol",solubility,fully soluble
